{
  "source": "patent US20030216569A1",
  "about": "“Method of making HIV protease inhibitors” (priority 1993, published 2003)",
  "system": "HIV-1 isolates IIIB and/or RF in CEM cells",
  "assay": "SRI primary anti-HIV screen, MTT assay of inhibition of HIV-induced cell killing in CEM cells",
  "assay_type": "cell-based",
  "note": "The match of structure and compound is tentative.",
  "data": [
    {"smiles": "CC(C)(C)NC(=O)c1ccccc1C[C@@H](O)[C@H](Cc1ccccc1)NC(=O)[C@H](CC(N)=O)NC(=O)c1ccc2ccccc2n1", "values": [
      {"measurement": "SRI CEM IC50 ng/mL", "result": "(74.8) ng/mL"}
    ]}
  ]
}
